Share of PSTVd stem 3 variants by leaf site

Data from the supplement of Wu et al. 2024, doi:10.1371/journal.ppat.1012142.

PSTVd intermediate strain, stem 3: wild type GUGGUUCCGGAACCGC, pool pattern GUGGUUCCGNANNCNN; upper and lower strand joined, each 5' to 3', the first 8 letters being the upper strand.

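A pool of all variants was put on leaves of three Nicotiana benthamiana plants. Samples came from the inoculated region at 5 days, the leaf margin at 10 and upper systemic leaves at 12.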

Numbers give reads per thousand; 0 = not seen among the reads, higher = more abundant. Each site shows the three plants. "Pool" is the share in the plasmid pool used as inoculum, on the same scale. The inoculated region was read from the minus strand, the other sites from the plus strand. For reference, wild type rose from 17.3 per thousand in the pool to 330, 345, 235 (inoculated region), 794, 766, 816 (leaf margin) and 830, 792, 869 (systemic leaves). With 27,691-54,225 reads a sample, very low values are single reads. The authors trace changes outside the varied positions to PCR and sequencing errors or to mutation in the plant; presence does not show that a variant is infectious alone.

GUGGGUCCGAAUGGUA (pool 0.0154): inoculated region 0 / 0 / 0; leaf margin 0 / 0 / 0; systemic leaves 0 / 0 / 0.
GUGGGUCCGCAUGCCC (pool 0.0154): inoculated region 0 / 0 / 0; leaf margin 0 / 0 / 0; systemic leaves 0 / 0 / 0.
GUGGGUCCGGAACCUU (pool 0.0154): inoculated region 0 / 0 / 0; leaf margin 0 / 0 / 0; systemic leaves 0 / 0 / 0.
GUGGUUCCGAAAUCAC (pool 0.708): inoculated region 1.15 / 0.906 / 1.43; leaf margin 0 / 1.34 / 0.253; systemic leaves 0 / 0 / 0.
GUGGUUCCGAAAUCCG (pool 0.954): inoculated region 0.666 / 0.776 / 0.757; leaf margin 0 / 0 / 0; systemic leaves 0 / 0 / 0.
GUGGUUCCGAACGCAC (pool 0.862): inoculated region 0.746 / 0.863 / 0.730; leaf margin 0 / 0.0636 / 0; systemic leaves 0 / 0 / 0.
GUGGUUCCGAACUCGC (pool 1.29): inoculated region 0.960 / 1.01 / 1.30; leaf margin 0 / 0 / 0.0361; systemic leaves 0 / 0 / 0.
GUGGUUCCGAAGACAU (pool 0.785): inoculated region 0.693 / 0.539 / 1.00; leaf margin 1.53 / 0.986 / 0.542; systemic leaves 1.10 / 0.996 / 0.730.
GUGGUUCCGAAGCCCC (pool 0.785): inoculated region 0.933 / 0.604 / 1.11; leaf margin 0 / 0 / 0.433; systemic leaves 0 / 0 / 0.
GUGGUUCCGAAUACGU (pool 1.20): inoculated region 0.720 / 0.841 / 0.919; leaf margin 0 / 0 / 0; systemic leaves 0 / 0 / 0.0730.
GUGGUUCCGCAAACAU (pool 0.662): inoculated region 0.773 / 0.733 / 0.838; leaf margin 0.0283 / 0 / 0.325; systemic leaves 0 / 0 / 0.
GUGGUUCCGCAAUCAU (pool 1.52): inoculated region 1.95 / 1.64 / 2.41; leaf margin 1.78 / 0.891 / 0.542; systemic leaves 1.27 / 0.977 / 0.900.
GUGGUUCCGCAAUCCC (pool 1.11): inoculated region 0.746 / 0.755 / 0.676; leaf margin 0 / 0 / 0; systemic leaves 0.0559 / 0 / 0.0730.
GUGGUUCCGCACCCUC (pool 1.00): inoculated region 0.373 / 0.431 / 0.270; leaf margin 0 / 0 / 0; systemic leaves 0 / 0 / 0.
GUGGUUCCGCACCCUG (pool 1.02): inoculated region 0.347 / 0.496 / 0.297; leaf margin 0.0283 / 0 / 0; systemic leaves 0 / 0 / 0.
GUGGUUCCGCACGCCG (pool 0.662): inoculated region 0.293 / 0.345 / 0.189; leaf margin 0.0283 / 0 / 0; systemic leaves 0 / 0 / 0.
GUGGUUCCGCACGCCU (pool 1.15): inoculated region 0.560 / 0.474 / 0.351; leaf margin 0 / 0 / 0.0361; systemic leaves 0 / 0 / 0.
GUGGUUCCGCACUCCG (pool 1.32): inoculated region 0.533 / 0.496 / 0.622; leaf margin 0 / 0 / 0.0722; systemic leaves 0.0746 / 0.0922 / 0.0243.
GUGGUUCCGCAGUCUU (pool 1.43): inoculated region 1.07 / 0.949 / 1.19; leaf margin 1.61 / 1.27 / 0.289; systemic leaves 1.21 / 1.40 / 0.778.
GUGGUUCCGCAUACCG (pool 0.631): inoculated region 0.373 / 0.259 / 0.189; leaf margin 0 / 0 / 0.0361; systemic leaves 0 / 0 / 0.
GUGGUUCCGCAUUCAG (pool 0.877): inoculated region 0.906 / 0.712 / 0.865; leaf margin 0 / 0 / 0; systemic leaves 0 / 0 / 0.
GUGGUUCCGGAAACCG (pool 0.631): inoculated region 0.240 / 0.259 / 0.351; leaf margin 0.0283 / 0 / 0; systemic leaves 0 / 0 / 0.
GUGGUUCCGGAACAGC (pool 0.123): inoculated region 0.533 / 0.345 / 0.540; leaf margin 0.906 / 0.604 / 0.614; systemic leaves 0.615 / 0.664 / 0.584.
GUGGUUCCGGAGACGA (pool 0.877): inoculated region 0.240 / 0.259 / 0.216; leaf margin 0 / 0 / 0.0361; systemic leaves 0 / 0 / 0.
GUGGUUCCGGAGCCUC (pool 1.02): inoculated region 0.426 / 0.410 / 0.297; leaf margin 0 / 0 / 0.0361; systemic leaves 0 / 0 / 0.
GUGGUUCCGGAUACUU (pool 0.816): inoculated region 0.453 / 0.323 / 0.216; leaf margin 0 / 0.0318 / 0.0361; systemic leaves 0 / 0 / 0.
GUGGUUCCGGAUCCCG (pool 0.923): inoculated region 0.293 / 0.280 / 0.297; leaf margin 0 / 0.0318 / 0; systemic leaves 0 / 0 / 0.
GUGGUUCCGUAACCUC (pool 0.585): inoculated region 0.400 / 0.129 / 0.324; leaf margin 0 / 0 / 0; systemic leaves 0 / 0.0369 / 0.0243.
GUGGUUCCGUAAGCAG (pool 0.908): inoculated region 0.320 / 0.302 / 0.108; leaf margin 0.0283 / 0 / 0; systemic leaves 0 / 0 / 0.
GUGGUUCCGUACCCAU (pool 0.877): inoculated region 1.09 / 1.04 / 1.24; leaf margin 0.0283 / 0 / 0; systemic leaves 0.0746 / 0 / 0.
GUGGUUCCGUACCCGC (pool 0.800): inoculated region 0.453 / 0.323 / 0.270; leaf margin 0.0283 / 0 / 0; systemic leaves 0 / 0.0184 / 0.
GUGGUUCCGUACGCGA (pool 0.893): inoculated region 0.347 / 0.194 / 0.297; leaf margin 0 / 0.0636 / 0; systemic leaves 0 / 0 / 0.
GUGGUUCCGUACGCGG (pool 0.693): inoculated region 0.453 / 0.259 / 0.108; leaf margin 0.0283 / 0 / 0.0361; systemic leaves 0 / 0 / 0.
GUGGUUCCGUAGACCA (pool 0.785): inoculated region 0.160 / 0.388 / 0.243; leaf margin 0 / 0 / 0; systemic leaves 0 / 0 / 0.
GUGGUUCCGUAGACCG (pool 0.985): inoculated region 0.320 / 0.216 / 0.216; leaf margin 0 / 0.0318 / 0; systemic leaves 0 / 0 / 0.
GUGGUUCCGUAGGCCG (pool 2.62): inoculated region 1.36 / 1.94 / 1.65; leaf margin 0 / 0.0318 / 0; systemic leaves 0.0186 / 0.129 / 0.219.
GUGGUUCCGUAGUCUC (pool 1.63): inoculated region 0.720 / 0.647 / 0.865; leaf margin 0.0283 / 0 / 0; systemic leaves 0.0373 / 0.0184 / 0.
GUGGUUCCGUAUGCCG (pool 0.816): inoculated region 0.426 / 0.259 / 0.243; leaf margin 0.0567 / 0 / 0; systemic leaves 0 / 0 / 0.
GUGGUUCCGUAUGCUG (pool 1.43): inoculated region 0.533 / 0.582 / 0.540; leaf margin 0.0283 / 0.0318 / 0; systemic leaves 0.168 / 0.0184 / 0.
GUGUUUCCGCACUCAU (pool 0.0154): inoculated region 0 / 0 / 0; leaf margin 0 / 0 / 0; systemic leaves 0 / 0 / 0.